From WO2021237516A1, “Sars-cov-2 antibody and application thereof” (dated 2021)

target: T1, SARS-CoV-2 S1 (SARS-CoV-2, UniProt P0DTC2 16-685); assay: Octet Red BLI, antibody on AHC sensor, 100 nM SARS-CoV-2 S1
T1 construct: domain: S1

Binder	binding result
Ab2001.02 (antibody, V domains shown) VH: EVQLVESGGGLVQPGGSLRLSCAASGFTVSSNYMSWVRQAPGKGLEWVSAISGSGGSTYYADSVKGRFTISRDNSKNTLYLQMNSLRAEDTAVYYCAREVSDAFDIWGQGTMVTVSS VL: DIQMTQSPSSLSASVGDRVTITCRASQGISNSLAWYQQKPGKAPKLLLYAASRLESGVPSRFSGSGSGTDYTLTISSLQPEDFATYYCQQSYSTPSTFGQGTKVEIK	binds
Ab2001.03 (antibody, V domains shown) VH: EVQLVESGGGLVQPGGSLRLSCAASGFTVSSNYMSWVRQAPGKGLEWVSVIYSGGSTYYADSVKGRFTISRDNSKNTLYLQMNSLRAEDTAVYYCAREVSDAFDIWGQGTMVTVSS VL: DIQMTQSPSSLSASVGDRVTITCRASQGISNSLAWYQQKPGKAPKLLLYAASRLESGVPSRFSGSGSGTDYTLTISSLQPEDFATYYCQQSYSTPSTFGQGTKVEIK	binds
Ab2001.11 (antibody, V domains shown) VH: EVQLVESGGGLVQPGGSLRLSCAASGFSFSNSDMHWVRQATGKGLEWVSAIGDSGDTYYSDSVKGRFTISRENAKSSLYLQMNSLRAEDTAVYYCARAANWGWDWYFDLWGRGTLVTVSS VL: not shown	binds
Ab2001.12 (antibody, V domains shown) VH: EVQLVETGGGLIQPGGSLRLSCAASGFTVSSNYMSWVRQAPGKGLEWVSVIYSGGSTYYADSVKGRFTISRDNSKNTLYLQMNSLRAEDTAVYYCARDAGPYGMDVWGQGTTVTVSS VL: not shown	binds
Ab2001.14 (antibody, V domains shown) VH: EVQLVESGGGLVQPGGSLRLSCAASGFTFSNYDMFWVRQAPGKGLEWVSAIGPAGDTYYADSVKGRFTISRDNSKNTLYLQMNSLRAEDTAVYYCTRGGDAPMVGWHFDVWGRGTLVTVSS VL: not shown	binds
Ab2001.25 (antibody, V domains shown) VH: EVQLVESGGGLVQPGGSLRLSCAASGFTFSNYDMFWVRQAPGKGLEWVSAIGPAGDTYYADSVKGRFTISRDNSKNTLYLQMNSLRAEDTAVYYCARGGIAAMVGWHFDLWGRGTLVTVSS VL: not shown	binds
Ab2001.24 (antibody, V domains shown) VH: EVQLVESGGGLVQPGGSLRLSCAASGFTFSNYDMFWVRQATGKGLEWVSAIGPAGDTYYADSVKGRFTISRDNAKNSLYLQMNSLRAEDTAVYYCTRGGVAPMAGWHFDLWGRGTLVTVSS VL: not shown	binds
